Values quoted from earlier work in patent publication US5837729A, “Methods for treating and preventing HIV infection using acetaminophen and derivatives thereof” (priority 1996, dated 1998).

Tested on: HIV
Conditions: background, earlier work of inventor; cited from earlier work

Q: For “human chorionic gonadotropin: human chorionic gonadotropin”, which “anti-HIV effect / inhibition of HIV replication (in words)” value is on record?
A: anti-HIV effect
